According to publication doi:10.1101/2022.12.01.518643 (bioRxiv, 2022):

Test system: HLA alleles of HEK293 cells
Assay: HLA restriction of naturally processed OC43 peptides
Set-up: species or system human
Conditions: MHC-II peptides; elution, binding and T cell assays

Sequence	HLA restriction
EGQQIIFYEGVNFTP [Peptide P8, OC43 hemagglutinin esterase 93–107, naturally processed peptide eluted from HLA-DR]	DR2b
ITTGYRFTNFEPFT [Peptide P5, OC43 spike 760–773, naturally processed peptide eluted from HLA-DP]	DP4
IHFSYVPTKYVTARVSPG [Peptide P7, OC43 spike 1147–1164, naturally processed peptide eluted from HLA-DP]	DP4
GAFFFGSRLELAKVQN [Peptide P2, OC43 nucleoprotein 321–336, naturally processed peptide eluted from HLA-DP]	DP4
YLAISNELLLTVPTK [Peptide P1, OC43 hemagglutinin esterase 259–273, naturally processed peptide eluted from HLA-DP]	DP4
SRQYLLAFNQDGIIFN [Peptide P13, OC43 spike 271–286, naturally processed peptide eluted from HLA-DR]	DR2b
NRGRQFYEFYNDVKPP [Peptide P14, OC43 envelope 62–78, naturally processed peptide eluted from HLA-DP]	DP4
APYGLYFIHFSYVPTK [Peptide P6, OC43 spike 1140–1155, naturally processed peptide eluted from HLA-DP]	DP4
LTALNAYVSQQLSDS [Peptide P11, OC43 spike 1085–1099, naturally processed peptide eluted from HLA-DR]	DR2b
LFYTQVYKNMAVYRS [Peptide P9, OC43 hemagglutinin esterase 128–142, naturally processed peptide eluted from HLA-DR]	DR2a,DR2b
LSDFINGIFAKVKNTK [Peptide P3, OC43 spike 97–111, naturally processed peptide eluted from HLA-DP]	DP4
PSGGNVVPYYSWFSG [Peptide P10, OC43 nucleoprotein 54–68, naturally processed peptide eluted from HLA-DR]	DR2b
